Measured values from several laboratories, pooled; numbers as filed in NIAID ChemDB.

All rows: growth or infection tests; organism: HIV-1; read-out: inhibition

Neighbouring rows are from separate reports.

Cl.O=C(O)CCC1=C(CC(=O)O)c2cc3nc(cc4[nH]c(cc5[nH]c(cc1n2)c(CC(=O)O)c5CCC(=O)O)c(CC(=O)O)c4CCC(=O)O)C(CC(=O)O)=C3CC(=O)O ; cells: MT-4 ; strain or isolate: LAV ; read by: cytopathic effect ; tested at: 10 µg/mL ; result: 97%
O=C(O)C1=C[C@@H](OC(=O)c2cc(O)c(O)c(O)c2)[C@@H](O)[C@H](OC(=O)c2cc(O)c(O)c(O)c2)C1 ; cells: H9 ; strain or isolate: IIIB ; read by: p24 ; tested at: 10 µM ; result: 45%
C[C@@H]1CN(C(=O)c2ccccc2)CCN1C(=O)C(=O)c1c[nH]c2nc(-c3ccccc3)ccc12 ; cells: HeLa ; read by: luciferase ; tested at: 10 µM ; result: 85%
CCc1c(Sc2ccccc2)n(COCc2ccccc2)c(=O)[nH]c1=O ; cells: MT-4 ; strain or isolate: A018A ; read by: p24 ; tested at: 0.026 µM ; result: 90%
CC1(C)CC[C@]2(C(=O)NCCCCCCCCCCC(=O)O)CC[C@]3(C)C(=CC[C@@H]4[C@@]5(C)C[C@@H](O)[C@H](O)C(C)(C)[C@@H]5CC[C@]43C)[C@@H]2C1 ; cells: MT-2 ; strain or isolate: pNL4-3 ; read by: p24 / ELISA ; tested at: 10 µM ; result: 43.3%
COc1c(C(=O)NCc2ccc(C)cc2)ccc2c1C(=O)N(C)C(c1ccc([N+](=O)[O-])cc1)N2 ; cells: TZM-bl ; read by: MTT ; tested at: 10 µM ; result: 64.9%
O=CN(/C=C/c1ccc(Cl)cc1)CCNS(=O)(=O)c1cccc2cnccc12 ; strain or isolate: LAI ; tested at: 16.7 µM ; result: 3%
C[C@H](NC(=O)CCCCCNC(=O)[C@]12CCC(C)(C)C[C@H]1C1=CC[C@@H]3[C@@]4(C)C[C@@H](O)[C@H](O)C(C)(C)[C@@H]4CC[C@@]3(C)[C@]1(C)CC2)C(=O)NCC(=O)O ; cells: MT-2 ; strain or isolate: pNL4-3 ; read by: p24 / ELISA ; tested at: 10 µM ; result: -70.2%
COc1c(C(=O)NCc2ccc(C)cc2)ccc2c1C(=O)N(C)C(c1cccs1)N2 ; cells: TZM-bl ; read by: MTT ; tested at: 10 µM ; result: 17.5%
C=Cc1c(C)c2cc3nc(c(CC(=O)O)c4nc(cc5[nH]c(cc1[nH]2)c(C)c5CC)C(C)=C4C(=O)O)C(CCC(=O)O)=C3C ; cells: MT-4 ; strain or isolate: LAV ; read by: cytopathic effect ; tested at: 10 µg/mL ; result: 97%
CSc1cc(N)nc(S[C@@H](C)c2cc3c(C)coc3cn2)n1 ; cells: MT-4 ; strain or isolate: MF DLV-resistant (RT P236L) ; changes: RT-P236L ; read by: p24 ; tested at: 0.02 µM ; result: 90%
CC1=C(CCC(=O)O)c2cc3nc(cc4[nH]c(cc5[nH]c(cc1n2)c(C)c5CCC(=O)O)c(CCC(=O)O)c4C)C(CCC(=O)O)=C3C ; cells: MT-4 ; strain or isolate: LAV ; read by: cytopathic effect ; tested at: 10 µg/mL ; result: 96.5%
O=S(=O)(NCCNC/C=C/c1ccc(Br)cc1)c1cccc2cnccc12 ; strain or isolate: LAI ; tested at: 16.7 µM ; result: 3%
CCC1=C(C)C2=NC1=CC1=C(C)C3=C(O)CC(=C4N=C(C=c5[nH]c(c(CC)c5C)=C2)C(C)=C4CCC(=O)O)C3=N1 ; cells: MT-4 ; strain or isolate: LAV ; read by: cytopathic effect ; tested at: 10 µg/mL ; result: 97%
Cc1ccc(-c2ccc3c(c2)C=C(C(=O)Nc2ccc(C[N+](C)(C)C4CCOCC4)cc2)CCC3)cc1 ; cells: PBMC ; strain or isolate: TB9 CLADE C ; read by: p24 ; tested at: 1 µM ; result: 91.4%
CC(C)[C@H](NC(=O)[C@H](Cc1ccccc1)C[C@H](O)[C@H](Cc1ccccc1)NC(=O)OC(C)(C)C)C(=O)N[C@@H](Cc1ccccc1)C(=O)N1CCOCC1 ; cells: PBL ; strain or isolate: AMS316-23 ; read by: RT activity ; tested at: 0.1 µM ; result: 89%
CC1(C)CC[C@]2(C(=O)NCCCCCC(=O)O)CC[C@]3(C)C(=CC[C@@H]4[C@@]5(C)C[C@@H](O)[C@H](O)C(C)(C)[C@@H]5CC[C@]43C)[C@@H]2C1 ; cells: MT-2 ; strain or isolate: pNL4-3 ; read by: p24 / ELISA ; tested at: 10 µM ; result: -46.4%
CC1CNCCN1S(=O)(=O)c1cccc2cnccc12 ; strain or isolate: LAI ; tested at: 16.7 µM ; result: 98%
Nc1ncnc2c1ncn2[C@@H]1O[C@H](CO)[C@H]1F ; cells: MT-4 ; read by: antigen ; tested at: 3 µg/mL ; result: <10%
NC(=O)NO ; cells: U-937 ; read by: p24 ; tested at: 200 µM ; result: 68.75%
COc1ncnc(NS(=O)(=O)c2ccc(N=C3C(=O)N(CN4CCOCC4)c4ccccc43)cc2)c1OC ; cells: MT-4 ; strain or isolate: LAI ; read by: cytopathic effect / MTT ; tested at: 2 µg/mL ; result: 12%
O=C1O[C@@H]2[C@@H](OC(=O)c3cc(O)c(O)c(O)c3-c3c1cc(O)c(O)c3O)[C@@H](O)O[C@@H]1COC(=O)c3cc(O)c(O)c(O)c3-c3c(O)c(O)c4oc(=O)c5c(c(O)c(O)c6oc(=O)c3c4c65)-c3c(cc(O)c(O)c3O)C(=O)O[C@@H]21 ; cells: H9 ; strain or isolate: IIIB ; read by: p24 ; tested at: 5 µM ; result: 63%
C=CCN(CC=C)C(=S)N=Nc1c(O)n(CC=C)c2ccccc12 ; cells: H9/HIV-1 + H9 ; conditions: chronic infection ; read by: plaque count ; tested at: 6 µg/mL ; result: 99%
CC(C)[C@H](NC(=O)[C@]12CCC(C)(C)C[C@H]1C1=CC[C@@H]3[C@@]4(C)C[C@@H](O)[C@H](O)C(C)(C)[C@@H]4CC[C@@]3(C)[C@]1(C)CC2)C(=O)O ; cells: MT-2 ; strain or isolate: pNL4-3 ; read by: p24 / ELISA ; tested at: 10 µM ; result: -2.8%
Cc1ccc(C(=O)OCC2OC(N3C(=O)NC(=O)/C3=C\c3ccc4ccc5cccc6ccc3c4c56)CC2OC(=O)c2ccc(C)cc2)cc1 ; cells: MT-4 ; strain or isolate: IIIB ; read by: ELISA / antigen ; tested at: 100 µM ; result: <30%
O=S(=O)(NCCN/C=C/c1ccccc1)c1cccc2cnccc12 ; strain or isolate: LAI ; tested at: 16.7 µM ; result: 6%
CO[C@H]1C[C@@H]2CC[C@@H](C)[C@@](O)(O2)C(=O)C(=O)N2CCCC[C@H]2C(=O)O[C@H]([C@H](C)C[C@@H]2CC[C@@H](O)[C@H](OC)C2)CC(=O)[C@H](C)/C=C(\C)[C@@H](O)[C@@H](OC)C(=O)[C@H](C)C[C@H](C)/C=C/C=C/C=C/1C ; cells: PBMC ; strain or isolate: ADA R5 ; read by: p24 ; tested at: 0.01 µM ; result: 91%
CCOCSC1=N/C(=C\c2ccc3ccc4cccc5ccc2c3c45)C(=O)N1 ; cells: MT-4 ; strain or isolate: IIIB ; read by: ELISA / antigen ; tested at: 100 µM ; result: <30%
O=C(CCN1C(=O)/C(=C/c2ccc3c(c2)OCO3)SC1=S)Nc1ccc(C(=O)O)c(O)c1 ; cells: CEM + CEM-SS ; read by: cytopathic effect / XTT ; tested at: 200 µM ; result: 19.5%
Cc1ccc(C)c(NS(=O)(=O)c2cc(C(=O)NCc3ccccn3)ccc2Cl)c1 ; cells: C8166 ; strain or isolate: Clinical isolate ; changes: 3TC-resistant ; read by: p24 ; tested at: 1 µM ; result: 90%
Nc1ncnc2c1ncn2[C@@H]1O[C@H](CO)[C@@H]1O ; cells: MT-4 ; read by: antigen ; tested at: 3 µg/mL ; result: 99%
O=S(=O)(c1cccc2cnccc12)N1CCNCC1 ; strain or isolate: LAI ; tested at: 16.7 µM ; result: 85.4%
O=c1[nH]cnc2c1ncn2[C@H]1C[C@@H](CO)O1 ; cells: MT-4 ; read by: antigen ; tested at: 10 µg/mL ; result: >99.9%
O=C(CCCN1C(=O)/C(=C/c2cccs2)SC1=S)Nc1ccc(O)c(C(=O)O)c1 ; cells: CEM + CEM-SS ; read by: cytopathic effect / XTT ; tested at: 63 µM ; result: 39%
Nc1ncnc2c1ncn2[C@@H]1O[C@H](CO)[C@H]1N ; cells: MT-4 ; read by: antigen ; tested at: 3 µg/mL ; result: 83%
O=C(O)C[C@H]1C(=O)O[C@H]2[C@H](OC(=O)c3cc(O)c(O)c(O)c3)[C@@H](OC(=O)c3cc(O)c(O)c4c3[C@H]1[C@H](O)C(=O)O4)[C@H](OC(=O)c1cc(O)c(O)c(O)c1)O[C@@H]2COC(=O)c1cc(O)c(O)c(O)c1 ; cells: H9 ; strain or isolate: IIIB ; read by: p24 ; tested at: 1 µM ; result: 53%
CC(C)[C@H](NC(=O)[C@H](Cc1ccccc1)C[C@H](O)[C@H](Cc1ccccc1)NC(=O)OC(C)(C)C)C(=O)N[C@@H](Cc1ccccc1)C(=O)N1CCOCC1 ; cells: MT-2 ; strain or isolate: MN ; read by: RT activity ; tested at: 0.03 µM ; result: 90%
COc1cc(-c2cc(-c3ccc4ccc5cccc6ccc3c4c56)c(C#N)c(=O)[nH]2)cc(OC)c1OC ; cells: MT-4 ; strain or isolate: IIIB ; read by: ELISA / antigen ; tested at: 100 µM ; result: <30%
O=C(O[C@@H]1[C@H](O)C[C@@](OC(=O)c2cc(O)c(O)c(O)c2)(C(=O)O)C[C@H]1OC(=O)c1cc(O)c(O)c(O)c1)c1cc(O)c(O)c(O)c1 ; cells: H9 ; strain or isolate: IIIB ; read by: p24 ; tested at: 40 µM ; result: 78%

A second listing of 4 rows from above:

compound	cells	strain or isolate	changes	conditions	read by	tested at	result
O=S(=O)(c1cccc2cnccc12)N1CCNCC1	-	LAI	-	-	-	16.7 µM	85.4%
COc1cc(-c2cc(-c3ccc4ccc5cccc6ccc3c4c56)c(C#N)c(=O)[nH]2)cc(OC)c1OC	MT-4	IIIB	-	-	ELISA / antigen	100 µM	<30%
COc1ncnc(NS(=O)(=O)c2ccc(N=C3C(=O)N(CN4CCOCC4)c4ccccc43)cc2)c1OC	MT-4	LAI	-	-	cytopathic effect / MTT	2 µg/mL	12%
CSc1cc(N)nc(S[C@@H](C)c2cc3c(C)coc3cn2)n1	MT-4	MF DLV-resistant (RT P236L)	RT-P236L	-	p24	0.02 µM	90%

Inhibition is in % at the dose shown (toxicity tests: loss of growth or viability). An empty or dashed field is not shown.